Anti-infective test results gathered from many reports (values: NIAID ChemDB through PubChem).

Common to all: enzyme or target tests; protein: CCR5; endpoint: IC50

Lines come from different laboratories, so protocols vary.

smiles	changes	read by	result
CCOC(=O)c1cccc(C(CCN2CCC(c3ccccc3)CC2)CN(C)S(=O)(=O)c2ccccc2)c1		radioligand binding / binding	<10 µM
CC(C)C(=O)N1C[C@H](CN2CCC(c3ccccc3)CC2)[C@@H](c2ccccc2)C1	CCR5-Y108A	radiometric	3.2 µM
CN(CC(CCN1CCC2(CC1)CSc1ccccc12)c1cc(Cl)cc(Cl)c1)S(=O)(=O)c1ccccc1		radioligand binding / binding	<10 µM
CN(CCC(CCN1CCC(c2ccccc2)CC1)c1ccccc1)S(=O)(=O)c1ccccc1		radioligand binding / binding	0.5 µM
CN(C[C@@H](CCN1CCC2(CC1)NC(=O)c1ccccc12)c1cccc(Cl)c1)S(=O)(=O)c1ccccc1		radioligand binding / binding	0.04 µM
O=C(C1CCCCC1)N1C[C@H](CN2CCC(c3ccccc3)CC2)[C@@H](c2ccccc2)C1	CCR5-Y37A	radiometric	0.13 µM
CN(C(=O)NCc1ccccc1)C1CCN(CCC(CN(C)S(=O)(=O)c2ccccc2)c2ccccc2)CC1		radioligand binding / binding	0.02 µM
CN(C[C@@H](CCN1CCC2(CC1)CS(=O)(=O)c1ccccc12)c1ccc(F)cc1)S(=O)(=O)c1ccccc1		radioligand binding / binding	0.68 µM
CCN(C(=O)OCc1ccccc1)C1CCN(CCC(COC(=O)c2ccccc2)(CN(C)S(=O)(=O)c2ccccc2)c2ccccc2)CC1		radioligand binding / binding	>1 µM
CN(CC(CCN1CCC2(CC1)CSc1ccccc12)c1ccccc1Cl)S(=O)(=O)c1ccccc1		radioligand binding / binding	>10 µM
CCCN(C(=O)NCc1ccccc1)C1CCN(CCC(CN(C)S(=O)(=O)c2ccccc2)c2ccccc2)CC1		radioligand binding / binding	0.002 µM
CN(C[C@@H](CCN1CCC2(CC1)CS(=O)(=O)c1ccccc12)c1cccc(Cl)c1)S(=O)(=O)c1ccccc1		radioligand binding / binding	0.014 µM
COC(=O)N(C(C)C)C1CCN(CCC(CN(C)S(=O)(=O)c2ccccc2)c2ccccc2)CC1		radioligand binding / binding	0.2 µM
CCN(C(=O)OCc1ccccc1)C1CCN(CCC(COC(=O)N(C)C)(CN(C)S(=O)(=O)c2ccccc2)c2ccccc2)CC1		radioligand binding / binding	>0.1 µM
O=C(c1ccccc1Cl)N1C[C@H](CN2CCC(O)(CCCc3ccc(-c4nn[nH]n4)cc3)CC2)[C@@H](c2ccccc2)C1	CCR5-Y251A	radiometric	0.055 µM
CN1C(=O)c2ccccc2C12CCN(CC[C@H](CN(C)S(=O)(=O)c1ccccc1)c1cccc(Cl)c1)CC2		radioligand binding / binding	0.045 µM
CN(CC(CCN1CCC2(CC1)CS(=O)c1ccccc12)c1ccccc1)S(=O)(=O)c1ccccc1		radioligand binding / binding	0.036 µM
CN(C[C@@H](CCc1ccc(-c2ccccc2)cc1)c1cccc(Cl)c1)S(=O)(=O)c1ccccc1		radioligand binding / binding	30 µM
CN(CC(CN1CCC2(CC1)CS(=O)(=O)c1ccccc12)c1ccccc1)S(=O)(=O)c1ccccc1		radioligand binding / binding	>10 µM

Repeating the final 2 entries:

{"smiles": "CN(C[C@@H](CCc1ccc(-c2ccccc2)cc1)c1cccc(Cl)c1)S(=O)(=O)c1ccccc1", "read by": "radioligand binding / binding", "result": "30 µM"}
{"smiles": "CN(CC(CN1CCC2(CC1)CS(=O)(=O)c1ccccc12)c1ccccc1)S(=O)(=O)c1ccccc1", "read by": "radioligand binding / binding", "result": ">10 µM"}

ICn: concentration for n% inhibition. Blank or dashed fields: not listed here.